Measured values published in article PMC3517363.
Where two headings read alike, the source gives them in different places.

By UniProt entry, the sequences of proteins in these tests, tags left out.
UniProt P03069, whole entry: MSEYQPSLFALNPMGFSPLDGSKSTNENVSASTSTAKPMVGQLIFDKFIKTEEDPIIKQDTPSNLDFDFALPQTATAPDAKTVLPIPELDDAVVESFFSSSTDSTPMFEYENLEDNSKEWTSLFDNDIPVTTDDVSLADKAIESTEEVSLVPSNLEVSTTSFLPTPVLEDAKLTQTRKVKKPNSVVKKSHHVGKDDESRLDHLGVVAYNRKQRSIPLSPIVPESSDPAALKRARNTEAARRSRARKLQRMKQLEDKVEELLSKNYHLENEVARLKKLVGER

Columns and labels:
Experiment in all cases: two-hybrid
[1] = target: T25-Zip (UniProt P03069)
[2] = target: T25-Zip (UniProt P03069); remark: listed apart in the source
[3] = target: T25-Zip (UniProt P03069); remark: listed apart in the source
[4] = target: T25-Zip (UniProt P03069); remark: listed apart in the source
[5] = target: T25-Zip (UniProt P03069); remark: listed apart in the source

T18-Zip (from UniProt P03069 1-281) (domain or fragment)
β-galactosidase activity (units/mg dry weight of bacteria) [1]: 1600 | β-galactosidase activity (units/mg dry weight of bacteria) [2]: 1550 | β-galactosidase activity (units/mg dry weight of bacteria) [3]: 1500 | β-galactosidase activity [4]: 1450 units | β-galactosidase activity (units/mg dry weight of bacteria) [4]: 1780 | β-galactosidase activity (units/mg dry weight of bacteria) [5]: 1520
